Source: patent US9204653B2, “5-fluoro pyrimidine derivatives” (DOW AGROSCIENCES LLC, priority 2008, dated 2015)

Columns and labels:
[1] = system: Mycosphaerella graminicola; Anamorph: Septoria tritici; Bayer Code SEPTTR; test: Leaf blotch of wheat, foliar fungicide treatment, one day protectant (1DP) or three day curative (3DC); type: in vivo, Septoria tritici on wheat plants (variety Yuma)
[2] = system: Venturia inaequalis; Bayer Code VENTIN; test: Apple scab; type: in vivo; conditions: % disease control rating, one day protectant
[3] = system: Cercospora beticola; Bayer Code CERCBE; test: Leaf spot of sugar beets; type: in vivo, Cercospora beticola on sugar beets (variety HH-88); conditions: % disease control rating, one day protectant
[4] = one day protectant, rating of percent disease control
[5] = three day curative, rating of percent disease control
[6] = one day protectant (1DP), rating of percent disease control
[7] = three day curative (3DC), rating of percent disease control
[8] = one day protectant (1DP), percent disease control rating
[9] = three day curative (3DC), percent disease control rating

CCOP(=O)(Nc1nc(OCc2cccc(C#N)c2)ncc1F)OCC
SETTTR 1DP 25 ppm [1, 4]: D (0-25)
SEPTTR 1DP 100 ppm [1, 4]: D (0-25)
SEPTTR 3DC 25 ppm [1, 5]: D (0-25)
SEPTTR 3DC 100 ppm [1, 5]: B (51-75)
VENTIN 1 DP 25 ppm ([2]; 25 ppm): D (0-25)
VENTIN 1 DP 75 ppm ([2]; 75 ppm): D (0-25)
CERCBE 1 DP 25 ppm ([3]; 25 ppm): C (26-50)
CERCBE 1 DP 75 ppm ([3]; 75 ppm): C (26-50)

CCOP(=O)(Nc1nc(OCc2cccs2)ncc1F)OCC
SETTTR 1DP 25 ppm [1, 6]: C (26-50)
SEPTTR 1DP 100 ppm [1, 6]: A (76-100)
SEPTTR 3DC 25 ppm [1, 7]: B (51-75)
SEPTTR 3DC 100 ppm [1, 7]: A (76-100)

CCOP(=O)(Nc1nc(OCc2ccc(C)cc2)ncc1F)OCC
SETTTR 1DP 25 ppm [1, 6]: D (0-25)
SEPTTR 1DP 100 ppm [1, 6]: D (0-25)
SEPTTR 3DC 25 ppm [1, 7]: D (0-25)
SEPTTR 3DC 100 ppm [1, 7]: D (0-25)

CCOP(=O)(Nc1nc(OCc2ccccc2OC)ncc1F)OCC
SETTTR 1DP 25 ppm [1, 6]: D (0-25)
SEPTTR 1DP 100 ppm [1, 6]: D (0-25)
SEPTTR 3DC 25 ppm [1, 7]: D (0-25)
SEPTTR 3DC 100 ppm [1, 7]: D (0-25)

CCOP(=O)(Nc1nc(OCc2ccc(F)cc2)ncc1F)OCC
SETTTR 1DP 25 ppm [1, 8]: C (26-50)
SEPTTR 1DP 100 ppm [1, 8]: B (51-75)
SEPTTR 3DC 25 ppm [1, 9]: D (0-25)
SEPTTR 3DC 100 ppm [1, 9]: D (0-25)

CCOP(=O)(Nc1nc(OCc2cccc(F)c2)ncc1F)OCC
SETTTR 1DP 25 ppm [1, 4]: D (0-25)
SEPTTR 1DP 100 ppm [1, 4]: B (51-75)
SEPTTR 3DC 25 ppm [1, 5]: D (0-25)
SEPTTR 3DC 100 ppm [1, 5]: B (51-75)

CCOP(=O)(Nc1nc(OC(C)c2ccc(F)cc2)ncc1F)OCC (stereo not shown)
SETTTR 1DP 25 ppm [1, 4]: C (26-50)
SEPTTR 1DP 100 ppm [1, 4]: B (51-75)
SEPTTR 3DC 25 ppm [1, 5]: C (26-50)
SEPTTR 3DC 100 ppm [1, 5]: A (76-100)

CCOP(=O)(Nc1nc(OCc2ccccc2)ncc1F)OCC
SETTTR 1DP 25 ppm [1, 8]: D (0-25)
SEPTTR 1DP 100 ppm [1, 8]: C (26-50)
SEPTTR 3DC 25 ppm [1, 9]: C (26-50)
SEPTTR 3DC 100 ppm [1, 9]: A (76-100)

CCOP(=O)(Nc1nc(OCc2ccc(OC)c(F)c2)ncc1F)OCC
SETTTR 1DP 25 ppm [1, 6]: D (0-25)
SEPTTR 1DP 100 ppm [1, 6]: D (0-25)
SEPTTR 3DC 25 ppm [1, 7]: D (0-25)
SEPTTR 3DC 100 ppm [1, 7]: C (26-50)
